Measured values from several laboratories, pooled; numbers as filed in NIAID ChemDB.

All rows: tests in culture; agent: Mycobacterium tuberculosis

Blank or dashed fields: not listed here. ECn: concentration that inhibits the pathogen or its effect by n%. MIC bound comes from a single tested concentration. Neighbouring rows are from separate reports. MIC50, MIC90 and the like: level of inhibition, or share of isolates inhibited. Percent inhibition refers to the dose given; in toxicity tests it is the harm to the cells.

compound	strain	changes	read by	read-out	dose	result
O=C(NCCCC1CCCCC1)c1c(C2CCCCC2)nc2cc(Cl)ccn12	H37Rv		resazurin	MIC90		>162 µM
Cc1cc(O)c2c(c1)C(=O)C(c1c(C)cc3c(c1O)C(=O)C=CC3=O)=CC2=O	H37Rv			MIC		0.1 µg/mL
CCCCCCCCO[C@H]1OC([C@@H](COC)O[C@H]2O[C@H]([C@@H](O)CO)[C@@H](O)[C@@H]2O)[C@@H](OC)[C@@H]1OC	H37Ra			MIC		>12.8 µg/mL
O=C(O)C1=C(CSc2nnnn2CS(=O)(=O)O)CS[C@@H]2[C@H](NC(=O)C(O)c3ccccc3)C(=O)N12	8 strains		BACTEC	inhibition	100 µg/mL	0%
NC(N)=N[C@H]1[C@H](O)[C@@H](O)[C@H](O[C@@H]2O[C@H](CO)[C@@H](O)[C@H](O)[C@H]2O)[C@@H](N=C(N)N)[C@@H]1O	666			MIC		50 µg/mL
COc1ccc2c(Cc3ccc(Cl)cc3Cl)c3[n+](cc2c1OC)CCc1cc2c(cc1-3)OCO2	H37Rv		broth dilution / turbidity	MIC		8 µg/mL
Cc1cn2c(C(=O)NCc3ccc(N4CCC(c5ccc(OC(F)(F)F)cc5)CC4)cc3)c(C)nc2s1	H37Rv	QcrB5 M342I	resazurin / fluorescence	MIC		<0.024 µM
COC(=O)c1ccc2[nH]c3ccccc3c2c1	H37Rv			MIC		>128 µg/mL
C=C/C(C)=C/C[C@H]1C(=C)CCC2[C@@](CCCCCCCCCCCCCCCCCCCC)(C(=O)O)CCC[C@@]21C	H37Ra			EC50		4.5 µg/mL
CCN1C(N2CCN(Cc3ccc([N+](=O)[O-])o3)CC2)=NS(=O)(=O)c2ccccc21	H37Rv		broth dilution	MIC		4 µg/mL
Nc1ccc(C(=O)O)c(O)c1	7800			inhibition	3.12 µM	100%
CCOC(=O)Nc1nc(NCCCCN(CC)CC)c2c(n1)SC(c1ccccc1)C(c1ccccc1)=N2	H37Rv			EC50		>50 µM
Cc1c(F)c(N2CCNC(C)C2)cc2c1c(=O)c(C(=O)O)cn2C1CC1	22 strains			MIC50		0.8 µg/mL
NC1CCN(c2c(F)cc3c(=O)c(C(=O)O)cn(C4CC4)c3c2Cl)C1	60 strains			MIC90		2 µg/mL
CCC(=O)O[C@H]1C[C@H]([C@H](C)CC/C=C(\C)C(=O)O)[C@@]2(C)CC=C3C(=CC[C@H]4C(C)(C)[C@@H](OC(C)=O)CC[C@]34C)[C@]12C	H37Ra		GFP	MIC90		0.0977 µg/mL
COc1ccccc1OC(=O)c1ccc(N)cc1O	H37Rv (streptomycin-resistant)			MIC		0.01 µg/mL
Cc1ccc(S(=O)(=O)N2CC(O)C(O)C2Cn2cnc3c(N)ncnc32)cc1	H37Rv		resazurin	MIC bound		>6.25 µg/mL
Cc1nc2cc(Cl)ccn2c1C(=O)NC1CCCCCCC1	H37Rv		resazurin	MIC90		>200 µM
COc1ccc2c(Cc3ccccc3)c3[n+](cc2c1OC)CCc1cc2c(cc1-3)OCO2	H37Rv		broth dilution / turbidity	MIC		16 µg/mL
COc1ccc(-c2cc(=O)c3c(OC)c(-c4cc(OC)ccc4C4CC(=O)c5c(OC)cc(OC)cc5O4)c(OC)cc3o2)cc1				inhibition	12.5 µg/mL	1%
COc1ccc2[nH]c3c(C)c(C)c(OC)c(OC)c3c2c1	H37Ra		GFP	MIC		25 µg/mL
Cc1cn2c(C(=O)NCc3cccc(C(F)(F)F)c3)c(C)nc2s1	H37Rv		resazurin / fluorescence	MIC		0.459 µM
O=C(NCCCC1CCCCC1)c1cn2ccc(Cl)cc2n1	H37Rv		resazurin	MIC90		>200 µM
O=C(NN1C(=O)CSC1c1ccccc1Cl)c1ncc2cc(C(F)(F)F)ccc2n1	H37Rv		visual reading	MIC		3.35 µM
CCCCCCCCO[C@@H]1O[C@@H](C(COCc2ccccc2)O[C@@H]2O[C@@H](C(COC(C)=O)OC(C)=O)[C@H](OC(C)=O)[C@H]2OC(C)=O)[C@H](OCc2ccccc2)[C@H]1OCc1ccccc1	H37Ra			MIC		>128 µg/mL
Clc1ccc(Nc2cc3nc4ccccc4n(-c4ccc(Cl)cc4)c-3cc2=NC2CCCC2)cc1	H37Ra		GFP	MIC90		0.938 µg/mL
CCCCCCCCOC1OC([C@H](CO)OC2O[C@@H](C(O)CO)[C@H](O)[C@H]2O)[C@H](O)[C@H]1O	H37Ra			MIC		>128 µg/mL
O=[N+]([O-])[O][Ga]([O][N+](=O)[O-])[O][N+](=O)[O-]	MDR isolates			inhibition	500 µM	95%
CC(=O)NC[C@H]1CN(c2ccc(N3CCOCC3)c(F)c2)C(=O)O1	H37Rv		agar	MIC		0.25 µg/mL
Cc1nc2ccccc2nc1C(=O)/C=C/c1ccc([N+](=O)[O-])cc1	H37Rv		resazurin	EC90		>250 µM
NC(=O)c1cnccn1	H37Rv		resazurin / fluorescence	MIC		1.25 µg/mL
CN[C@@H]1[C@H](O[C@H]2[C@H](O[C@H]3[C@H](O)[C@@H](O)[C@H](N=C(N)N)[C@@H](O)[C@@H]3N=C(N)N)O[C@@H](C)[C@]2(O)C=O)O[C@@H](CO)[C@H](O)[C@H]1O			broth dilution / visual reading	MIC		40 µg/mL
CN[C@@H]1[C@H](O[C@H]2[C@H](O[C@H]3[C@H](O)[C@@H](O)[C@H](N=C(N)N)[C@@H](O)[C@@H]3N=C(N)N)O[C@@H](C)[C@]2(O)C=O)O[C@@H](CO)[C@H](O)[C@H]1O	H37Ra		GFP	MIC90		0.625 µg/mL
COc1c(C)c(C)c2[nH]c3ccc(Cc4c(C)c(OC)c(O)c5c4[nH]c4ccccc45)cc3c2c1O	H37Ra		GFP	MIC		>50 µg/mL
CC(=O)O[C@H]1C[C@H]([C@H](C)CC/C=C(\C)C(=O)O)[C@@]2(C)CC=C3C(=CC[C@H]4C(C)(C)[C@@H](OC=O)CC[C@]34C)[C@]12C	H37Ra		GFP	MIC90		1.56 µg/mL
Cc1cn2c(C(=O)NCc3ccc(N4CCOCC4)c(F)c3)c(C)nc2s1	H37Rv	QcrB1 A317V	resazurin / fluorescence	MIC		12.5 µM
O=C(NN1C(=O)CSC1c1ccccc1F)c1ncc2cc(C(F)(F)F)ccc2n1	H37Rv		visual reading	MIC		3.02 µM
CC(=O)O[C@H]1CC[C@]2(C)C3=CC[C@]4(C)[C@@H]([C@H](C)CC/C=C(\C)C(=O)O)C[C@H](OC=O)[C@@]4(C)C3=CC[C@H]2C1(C)C	H37Ra		GFP	MIC90		3.13 µg/mL
Cc1cn2c(C(=O)NCc3ccc(C(F)(F)F)cc3)c(C)nc2s1	H37Rv	QcrB7 S182P	resazurin / fluorescence	MIC		4.7 µM
S=C(Nc1ccc(Cl)cc1)Nc1ccc(-c2n[nH]c(=S)n2-c2ccccc2)cc1	H37Rv			inhibition	12.5 µg/mL	1%
NC(=O)c1nccnc1NCc1cccc(C(F)(F)F)c1	H37Rv		resazurin / fluorescence	MIC		42 µM
CCSc1nc(NC)c2ccc(F)c(F)c2n1	H37Rv		fluorescence	MIC99		0.05 µg/mL
C(=Nc1ccccc1)c1ccccc1	H37Rv		resazurin	EC90		>250 µg/mL
O=C1N=C2SC([N+](=O)[O-])=CN2C2=NC(=S)NC(c3ccccc3O)C12	H37Rv		agar	MIC		68.8 µM
COc1ccc2[nH]c3c(Cc4ccc5[nH]c6c(C)c(C)c(OC)c(O)c6c5c4)c(C)c(OC)c(O)c3c2c1	H37Ra		GFP	MIC		12.5 µg/mL
O=C(NN1C(=O)CSC1c1ccc(O)cc1O)c1ncc2cc(C(F)(F)F)ccc2n1	H37Rv		visual reading	MIC		1.18 µM
NC[C@H]1O[C@H](O[C@H]2[C@H](O)[C@@H](O[C@H]3O[C@H](CO)[C@@H](O)[C@H](N)[C@H]3O)[C@H](N)C[C@@H]2N)[C@H](O)[C@@H](O)[C@@H]1O	72 strains		BACTEC	inhibition	1 µg/mL	39%
O=C(NN1C(=O)CSC1c1ccc(O)cc1)c1ncc2cc(C(F)(F)F)ccc2n1	H37Rv		visual reading	MIC		1.12 µM
Cc1cn2c(C(=O)NCc3ccc(N4CCN(c5ccc(C(F)(F)F)cn5)CC4)c(F)c3)c(C)nc2s1	H37Rv	QcrB5 M342I	resazurin / fluorescence	MIC		<0.024 µM
COc1ccccc1C1SCC(=O)N1NC(=O)c1ncc2cc(C(F)(F)F)ccc2n1	H37Rv		visual reading	MIC		2.81 µM
C=CCc1c2[n+](cc3c(OC)c(OC)ccc13)CCc1cc3c(cc1-2)OCO3	H37Rv		broth dilution / turbidity	MIC		>16 µg/mL
COc1ccc(C2SCC(=O)N2NC(=O)c2ncc3cc(C(F)(F)F)ccc3n2)c(O)c1	H37Rv		visual reading	MIC		2.42 µM
Cc1cc(COC(=O)c2ccc(N)cc2O)ccc1C(C)C	H37Rv (streptomycin-resistant)			MIC		0.025 µg/mL
COc1ccc2c(Cc3ccc(F)cc3)c3[n+](cc2c1OC)CCc1cc2c(cc1-3)OCO2	H37Rv		broth dilution / turbidity	MIC		8 µg/mL